Here are results for one substance from PMC3164629.

Chains of the proteins cited; added tags and fusions are not shown. Chains listed by the source or under a name are the forms on record and can include a tag or linker.
human mAb 2F5 (human), heavy, as listed by the source, chain 1 of 2: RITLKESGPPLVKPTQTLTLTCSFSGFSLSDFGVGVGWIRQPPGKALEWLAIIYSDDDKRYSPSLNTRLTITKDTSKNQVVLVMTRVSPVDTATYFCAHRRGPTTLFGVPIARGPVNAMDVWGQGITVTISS
human mAb 2F5 (human), light, as listed by the source, chain 2 of 2: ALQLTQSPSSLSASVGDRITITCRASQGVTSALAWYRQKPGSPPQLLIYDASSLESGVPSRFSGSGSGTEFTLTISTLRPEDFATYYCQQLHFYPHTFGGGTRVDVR

In the experiment the target is human mAb 2F5 (human). The experiment can be described thus: SPR.

On to “CON-S gp140CFI Env, natively deglycosylated with PNGase F 500 U per µg”, for which the fold enhancement of Kd against WT glycosylated CON-S gp140 worked out at 4 fold.
